Anti-infective test results gathered from many reports (values: NIAID ChemDB through PubChem).

Shared fields: whole-cell or culture tests; organism: Staphylococcus aureus; measure: MIC

Conditions beyond the fields shown may differ between rows.

structure | strain | result
CNC(=O)CC1NC(=O)c2csc(n2)-c2ccc(-c3nc(C(=O)NCCC(=O)OC(C)(C)C)cs3)nc2-c2csc(n2)-c2csc(n2)C(C(O)c2ccccc2)NC(=O)CNC(=O)c2nc(sc2CSSc2ncccn2)C(C(C)C)NC(=O)c2nc1sc2C | ATCC 33591 (methicillin-resistant) | 0.25 µg/mL
N#CCNc1cc2c(cc1F)c(=O)c(C(=O)O)cn2-c1ccc(F)cc1F | ATCC 6538P | 3.1 µg/mL
O=C(Nc1cc(C(F)(F)F)cc(C(F)(F)F)c1)NN1CCOCC1 | MI273 | >300 µM
CC[C@H]1OC(=O)[C@H](C)[C@@H](O[C@H]2C[C@@](C)(OC)[C@@H](O)[C@H](C)O2)[C@H](C)[C@@H](O[C@H]2O[C@@H](C)C[C@@H](N(C)C)[C@@H]2O)[C@](C)(O)C[C@@H](C)C(=O)[C@H](C)[C@@H](O)[C@]1(C)O | 33591 (erythromycin-resistant) | >64 µg/mL
CNC(=O)CC1NC(=O)c2csc(n2)-c2ccc(-c3nc(C(=O)NCCCCCC(=O)O)cs3)nc2-c2csc(n2)-c2csc(n2)C(C(O)c2ccccc2)NC(=O)CNC(=O)c2nc(sc2CO)C(C(C)C)NC(=O)c2nc1sc2C | ATCC 33591 (methicillin-resistant) | 0.25 µg/mL
Nc1nc(-n2cc(C(=O)O)c(=O)c3cc(F)c(N4CC(O)C4)cc32)c(F)cc1F | 209P | 0.05 µg/mL
CNC(=O)CC1NC(=O)c2csc(n2)-c2ccc(-c3nc(C(=O)NCCC(=O)OC(C)(C)C)cs3)nc2-c2csc(n2)-c2csc(n2)C(C(O)c2ccccc2)NC(=O)CNC(=O)c2nc(sc2CSSc2nnnn2CC(=O)O)C(C(C)C)NC(=O)c2nc1sc2C | ATCC 33591 (methicillin-resistant) | >16 µg/mL
CC(=O)NC[C@H]1CN(c2ccc(N(C)C(=O)c3ccc([N+](=O)[O-])o3)c(F)c2)C(=O)O1 | ATCC 29213 (linezolid-resistant) | 16 µg/mL
CC(=O)NC[C@H]1CN(c2ccc(OC3CCN(C(=O)COCc4cccnc4)CC3)c(F)c2)C(=O)O1 | OC2878 methicillin-resistant | 16 µg/mL
CNC(=O)CC1NC(=O)c2csc(n2)-c2ccc(-c3nc(C(=O)NCCC(=O)O)cs3)nc2-c2csc(n2)-c2csc(n2)C(C(O)c2ccccc2)NC(=O)CNC(=O)c2nc(sc2CSC)C(C(C)C)NC(=O)c2nc1sc2C | ATCC 33591 (methicillin-resistant) | 0.125 µg/mL
CC[C@H]1OC(=O)C[C@@H](O)[C@H](C)[C@@H](O[C@@H]2O[C@H](C)[C@@H](O)[C@H](N(C)C)[C@H]2O)C(C=O)C[C@@H](C)C(=O)/C=C/C(C)=C/[C@@H]1COC(=O)Nc1ccccc1 | 25923 (erythromycin-susceptible) | 0.25 µg/mL
CC(=O)NC[C@H]1CN(c2ccc(NC(=O)c3ccco3)c(F)c2)C(=O)O1 | ATCC 29213 (linezolid-resistant) | >64 µg/mL
CCN(CC)CCNc1cc2c(cc1F)c(=O)c(C(=O)O)cn2C1CC1 | ATCC 5278 (methicillin-resistant) | >100 µg/mL
CNC(=O)CC1NC(=O)c2csc(n2)-c2ccc(-c3nc(C(=O)NCCC(=O)OC(C)(C)C)cs3)nc2-c2csc(n2)-c2csc(n2)C(C(O)c2ccccc2)NC(=O)CNC(=O)c2nc(sc2CSSc2ccc(CCC(=O)O)cc2)C(C(C)C)NC(=O)c2nc1sc2C | ATCC 33591 (methicillin-resistant) | >16 µg/mL
CC(=O)NC[C@H]1CN(c2ccc(OC3CCN(c4ncccn4)CC3)c(F)c2)C(=O)O1 | OC4172 methicillin-susceptible | 32 µg/mL
CCCC[C@H](CC(=O)NO)C(=O)N[C@@H](CC(C)C)C(=O)Nc1ccc2ccccc2c1 | 3 strains | 1–2 µg/mL
CNC(=O)CC1NC(=O)c2csc(n2)-c2ccc(-c3nc(C(=O)NCCC(=O)O)cs3)nc2-c2csc(n2)-c2csc(n2)C(C(O)c2ccccc2)NC(=O)CNC(=O)c2nc(sc2CSc2ncccn2)C(C(C)C)NC(=O)c2nc1sc2C | ATCC 33591 (methicillin-resistant) | 0.125 µg/mL
NC(=O)CNc1cc2c(cc1F)c(=O)c(C(=O)O)cn2-c1ccc(F)cc1F | ATCC 6538P | 12.5 µg/mL
CC[C@H]1OC(=O)[C@H](C)C(=O)[C@H](C)[C@@H](O[C@@H]2O[C@H](C)C[C@H](N(C)C)[C@H]2O)[C@@]2(C)C[C@@H](C)C(=NC(C)=O)[C@H](C)[C@@H](OC/C(=N\OCCCc3ccccc3)CO2)[C@]1(C)O | 33591 (erythromycin methicillin-resistant) | >64 µg/mL
CNC(=O)CC1NC(=O)c2csc(n2)-c2ccc(-c3nc(C(=O)NCCC(=O)OC(C)(C)C)cs3)nc2-c2csc(n2)-c2csc(n2)C(C(O)c2ccccc2)NC(=O)CNC(=O)c2nc(sc2CSSc2nc3ccccc3s2)C(C(C)C)NC(=O)c2nc1sc2C | ATCC 33591 (methicillin-resistant) | 0.13 µg/mL
CCc1cc(Nc2cc(=O)n(CCCO)c(=O)[nH]2)ccc1C |  | 8 µg/mL
CCCCCCCCCCCC[N+](C)(C)COCC(C)C | ATCC33592 | 14.9 µM
CC(=O)NC[C@H]1CN(c2ccc(C3CCS(=O)(=O)CC3)c(F)c2)C(=O)O1 | UC9213 | 2 µg/mL
CNC(=O)CC1NC(=O)c2csc(n2)-c2ccc(-c3nc(C(=O)NCCC(=O)O)cs3)nc2-c2csc(n2)-c2csc(n2)C(C(O)c2ccccc2)NC(=O)CNC(=O)c2nc(sc2CSc2nc3cccnc3s2)C(C(C)C)NC(=O)c2nc1sc2C | ATCC 33591 (methicillin-resistant) | 0.5 µg/mL
CCCCCCCCCCCC[N+](C)(C)COCCCCCCCCC | ATCC33592 | 3.69 µM
CC[C@H]1OC(=O)C[C@@H](O)[C@H](C)[C@@H](O[C@@H]2O[C@H](C)[C@@H](O)[C@H](N(C)C)[C@H]2O)C(C=O)C[C@@H](C)C(=O)/C=C/C(C)=C/[C@@H]1COC/C=C/c1cnc2ccccc2c1 | 25923 (erythromycin-susceptible) | 0.5 µg/mL
CC(=O)NC[C@H]1CN(c2ccc(OC3CCN(C(=O)COCc4ccccc4)CC3)c(F)c2)C(=O)O1 | OC4172 methicillin-susceptible | 4 µg/mL
CC(=O)NC[C@H]1CN(c2ccc(NC(=O)c3cc4ccccc4o3)c(F)c2)C(=O)O1 | ATCC 29213 (linezolid-resistant) | >64 µg/mL
O=C(NNC(=O)NC1CCCCC1)Nc1cc(C(F)(F)F)cc(C(F)(F)F)c1 | MI273 | 100 µM
Cc1c(NC2CC2)c(F)cc2c(=O)c(C(=O)O)cn(-c3cc(N)c(F)cc3F)c12 | MR8736 (methicillin-resistant) | 8 µg/mL
CCCCCCCCCCCC[N+](C)(C)COCC | ATCC 6538 | 4.87 µM
O=C(Nc1cccc(C2=NCCN2)c1)Nc1cccc(C2=NCCN2)c1 | MI273 | 37 µM
CCc1cc(Nc2cc(=O)n(CC3CCN(C(=O)c4ccno4)CC3)c(=O)[nH]2)ccc1C |  | 8 µg/mL
CNc1c(F)cc2c(=O)c(C(=O)O)cn(-c3cc(N)c(F)cc3F)c2c1C | W806 (methicillin-resistant) | 0.5 µg/mL
Nc1nc(-n2cc(C(=O)O)c(=O)c3cc(F)c(N4CC(N)C4)c(Br)c32)c(F)cc1F | 209P | <0.013 µg/mL
COCC(=O)N1CCC(Oc2ccc(N3C[C@H](CNC(C)=O)OC3=O)cn2)CC1 | OC2878 methicillin-resistant | >64 µg/mL
CCCCCCCC[N+](C)(C)COC(C)CCC | ATCC33592 | 17 µM
COc1c(N2CCNC(C)C2)c(F)cc2c(=O)c(C(=O)O)cn(C3CC3)c12 | 209P | 0.05 µg/mL
O=C(NCCO)NNC(=O)Nc1cc(C(F)(F)F)cc(C(F)(F)F)c1 | MI273 | >300 µM
CC[C@H]1OC(=O)[C@H](C)C(=O)[C@H](C)[C@@H](O[C@@H]2O[C@H](C)C[C@H](N(C)C)[C@H]2O)[C@@]2(C)C[C@@H](C)C(=NC(C)=O)[C@H](C)[C@@H](OC/C(=N\OCC#Cc3ncccn3)CO2)[C@]1(C)O | 33591 (erythromycin methicillin-resistant) | >64 µg/mL
CC[C@H]1OC(=O)C[C@@H](O)[C@H](C)[C@@H](O[C@@H]2O[C@H](C)[C@@H](O)[C@H](N(C)C)[C@H]2O)C(C=O)C[C@@H](C)C(=O)/C=C/C(C)=C/[C@@H]1COC(N)=O | 25923 (erythromycin-susceptible) | 8 µg/mL
NCCCCNc1cc2c(cc1F)c(=O)c(C(=O)O)cn2C1CC1 | ATCC 5278 (methicillin-resistant) | >100 µg/mL
CC(=O)NC[C@H]1CN(c2ccc(NC(=O)c3ccc([N+](=O)[O-])s3)c(F)c2)C(=O)O1 | ATCC 29213 (linezolid-resistant) | >64 µg/mL
CC(C)NCCCNc1cc2c(cc1F)c(=O)c(C(=O)O)cn2C1CC1 | ATCC 6538P | 6.25 µg/mL
CC[C@H]1OC(=O)[C@H](C)C(=O)[C@H](C)[C@@H](O[C@@H]2O[C@H](C)C[C@H](N(C)C)[C@H]2O)[C@@]2(C)C[C@@H](C)C(=NC(C)=O)[C@H](C)[C@@H](OC/C(=N\OCCc3ccccc3)CO2)[C@]1(C)O | 33591 (erythromycin methicillin-resistant) | >64 µg/mL
C=CC(=O)NC[C@H]1CN(c2ccc(C3CCS(=O)(=O)CC3)c(F)c2)C(=O)O1 | UC 12673 | 2 µg/mL
O=C(O)c1cn(C2CC2)c2cc(N3CCN(CCO)CC3)c(F)cc2c1=O | ATCC 6538P | 3.12 µg/mL
O=C(Nc1cccc(C2=NCCN2)c1)Nc1cccc(C(F)(F)F)c1 | MI273 | 38 µM
CC(=O)NC[C@H]1CN(c2ccc(OC3CCN(C(=O)CO)CC3)c(F)c2)C(=O)O1 | OC4172 methicillin-susceptible | 4 µg/mL
CC[C@H]1OC(=O)[C@H](C)C(=O)[C@H](C)[C@@H](O[C@@H]2O[C@H](C)C[C@H](N(C)C)[C@H]2O)[C@@]2(C)C[C@@H](C)C(=NC(C)=O)[C@H](C)[C@@H](OC/C(=N\Oc3ccccc3)CO2)[C@]1(C)O | 27660 (erythromycin-resistant) | 0.5 µg/mL
CC[C@H]1OC(=O)C[C@@H](O)[C@H](C)[C@@H](O[C@@H]2O[C@H](C)[C@@H](O)[C@H](N(C)C)[C@H]2O)C(C=O)C[C@@H](C)C(=O)/C=C/C(C)=C/[C@@H]1COC(=O)Nc1ccc(Br)cc1 | 25923 (erythromycin-susceptible) | 0.5 µg/mL
CCNc1c(F)cc2c(=O)c(C(=O)O)cn(-c3cc(N)c(F)cc3F)c2c1C | W200 (methicillin-resistant) | 0.015 µg/mL
Nc1nc(-n2cc(C(=O)O)c(=O)c3cc(F)c(N4CC(N)C4)cc32)c(F)cc1F | 209P | 0.1 µg/mL
CNC(=O)CC1NC(=O)c2csc(n2)-c2ccc(-c3nc(COC(=O)NCCCC(C)=O)cs3)nc2-c2csc(n2)-c2csc(n2)C(C(O)c2ccccc2)NC(=O)CNC(=O)c2nc(sc2CSC)C(C(C)C)NC(=O)c2nc1sc2C | ATCC 33591 (methicillin-resistant) | 0.25 µg/mL

A second listing of 5 rows from above:

| structure | strain | result |
|---|---|---|
| CNC(=O)CC1NC(=O)c2csc(n2)-c2ccc(-c3nc(C(=O)NCCC(=O)OC(C)(C)C)cs3)nc2-c2csc(n2)-c2csc(n2)C(C(O)c2ccccc2)NC(=O)CNC(=O)c2nc(sc2CSSc2ccc(CCC(=O)O)cc2)C(C(C)C)NC(=O)c2nc1sc2C | ATCC 33591 (methicillin-resistant) | >16 µg/mL |
| CCc1cc(Nc2cc(=O)n(CC3CCN(C(=O)c4ccno4)CC3)c(=O)[nH]2)ccc1C |  | 8 µg/mL |
| CC[C@H]1OC(=O)[C@H](C)C(=O)[C@H](C)[C@@H](O[C@@H]2O[C@H](C)C[C@H](N(C)C)[C@H]2O)[C@@]2(C)C[C@@H](C)C(=NC(C)=O)[C@H](C)[C@@H](OC/C(=N\Oc3ccccc3)CO2)[C@]1(C)O | 27660 (erythromycin-resistant) | 0.5 µg/mL |
| CC[C@H]1OC(=O)C[C@@H](O)[C@H](C)[C@@H](O[C@@H]2O[C@H](C)[C@@H](O)[C@H](N(C)C)[C@H]2O)C(C=O)C[C@@H](C)C(=O)/C=C/C(C)=C/[C@@H]1COC/C=C/c1cnc2ccccc2c1 | 25923 (erythromycin-susceptible) | 0.5 µg/mL |
| CC[C@H]1OC(=O)C[C@@H](O)[C@H](C)[C@@H](O[C@@H]2O[C@H](C)[C@@H](O)[C@H](N(C)C)[C@H]2O)C(C=O)C[C@@H](C)C(=O)/C=C/C(C)=C/[C@@H]1COC(N)=O | 25923 (erythromycin-susceptible) | 8 µg/mL |

a–b is a range or a potency band. Blank or dashed fields: not listed here.